## Library screen at single concentrations

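Phenotypic screen: M. tuberculosis growth, glucose 7H9 medium, 3 days; the read-out is not stated. Tested at 50 µM. Direction is inferred from retests: higher values go with more growth inhibition. About 69,000 compounds were tested under these conditions; 1.1% (about 760) showed 50% or more at least once.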

Results are given as percent effect. The controls that fix the scale are not given in the record; negative values are as filed. This is part of a subset picked to be rich in strong results. Two or more numbers in one place are separate tests of the same structure; such repeats can differ widely.

* [H][C@]12CCN(C(=O)c3ccccc3F)C[C@@]1([H])OCCN(c1ncccn1)C2 : -12.15%
* Cc1nc(COC(=O)c2cccnc2C)no1 : 2.547%
* N#Cc1cccc(S(=O)(=O)N2CCCCC2CCN2CCCC2)c1 (stereo unspecified) : 60.69%
* Cc1ccc(NC2CCCN(CCCc3ccccc3)C2)nn1 (stereo unspecified) : -0.4089%
* Cc1ccc(Cl)c2ccc(NC(CO)CO)nc12 : 23.76%
* Cc1ccccc1CS(=O)(=O)Cc1nc(C2CC2)no1 : 15.15%
* Cc1ncsc1C(=O)NCCc1cccs1 : -5.868%
* COc1ccc(-c2cc(CN)ccc2F)c(OC)c1OC : -33.33% and 11.48%
* O=S(=O)(CCN1CCOC(Cn2cccn2)C1)c1ccccc1 (stereo unspecified) : -20.6%
* Clc1ccc(C2(CNC3=NCCN3)CCCCC2)cc1.I : 46.5%
* COCCN(C)CC1CCCN1S(=O)(=O)c1cc(C)oc1C (stereo unspecified) : 8.025% and 2.309%
* COC(=O)COc1ccc(-c2noc(C3CCCO3)n2)cc1 (stereo unspecified) : 95.14%
* COC(=O)c1ccc(C(=O)NCc2ccc(Br)cc2)cn1 : 97.67%
* NC(=O)NC(=O)CCN1CCC(C(=O)c2cc(F)ccc2F)CC1 : 1.068%
* CC(C)n1cc(C(=O)NCC(CO)Cc2cccs2)cn1 (stereo unspecified) : 7.832% and -0.2664%
* CCC(O)CNc1ccc(-c2nc(CC(C)C)no2)cn1 (stereo unspecified) : 54.98% and 40.5%
* O=C(CCc1ccccn1)N1CCc2cc(Cl)cc(Cl)c2C1 : 7.992%
* CN(Cc1cnccn1)S(=O)(=O)c1ccc(C(F)(F)F)nc1 : -9.32%
* Cc1nc(C(=O)N(CC(=O)N(C)C)CC(F)(F)F)c2ccccn12 : 1.278% and -4.286%
* COc1cccc(CN2CCCC2c2c(C)nn(C)c2C)c1 (stereo unspecified) : 68.63%
* COc1ccc(-c2nc(CNC(C)Cn3cccn3)cs2)cc1 (stereo unspecified) : 59.35%
* C[C@@H]1CN(C2CCN(Cc3nn(C)c4cccc(Cl)c34)CC2)C[C@H](C)O1 : 3.416%
* CCc1cc2cc(OC)c(OC)cc2nc1SCCN1CCCCC1.Cl : 21.56%
* CC(C)(C)c1ncc(C(=O)NCCNC(=O)c2cccs2)s1 : -33.5%
* CN(CCC1CCCCO1)c1nncc(-c2ccccc2)n1 (stereo unspecified) : 55.57%
* CN(Cc1ccco1)Cc1cncc2c1CCN(c1ncccn1)C2.Cl.Cl : 13.59%
* C[C@@H]1CN(c2nc3c(cc2C(N)=O)CCC3)C[C@]1(C)O : 12.88% and -3.604%
* CN1N=C(C(=O)N2CCCC(CCc3ccccc3F)C2)CCC1=O (stereo unspecified) : 11.47%
* O=S(=O)(CCO)Cc1ccc(OC(F)F)cc1 : -14.63%
* Cc1c(C(=O)NCC(F)(F)F)nnn1-c1ccccc1Cl : 18.28%
* COc1ccc(-c2noc(C(CC(C)C)N3CCCCC3=O)n2)cn1 (stereo unspecified) : 22.66%
* CC(C)Cc1cc(NC(=O)c2ccncc2)n(C)n1 : 38.13%
* CC1(C)Cc2c(cnn2-c2ccccc2)C(NC2CCSCC2)C1 (stereo unspecified) : 51.19% and 10.37%

Once more, the final 4:

| compound | Percent Effect |
|---|---|
| `Cc1c(C(=O)NCC(F)(F)F)nnn1-c1ccccc1Cl` | 18.28 |
| `COc1ccc(-c2noc(C(CC(C)C)N3CCCCC3=O)n2)cn1` (stereo unspecified) | 22.66 |
| `CC(C)Cc1cc(NC(=O)c2ccncc2)n(C)n1` | 38.13 |
| `CC1(C)Cc2c(cnn2-c2ccccc2)C(NC2CCSCC2)C1` (stereo unspecified) | 51.19 and 10.37 |

Measurements from “University of Dundee, Small-Polar-MMV Screening Library” (2021), ChEMBL document CHEMBL3988442.